Values quoted from earlier work, collected in patent US8048918B2, “Treatment of hyperproliferative diseases” (Vampex Limited, priority 2000, dated 2011).

Test system: retinol dehydrogenase
Conditions: Boerman and Napoli, Biochemistry 34:7027-37, 1995; cited from earlier work

SMILES: O=[As]c1ccccc1 (stereo not shown)
- IC50: 5 µM
